The values below come from PubChem BioAssay AID1085 (Emory University Molecular Libraries Screening Center, 2008).

Chains of the proteins cited; added tags and fusions are not shown.
UniProt Q1HVG2, whole entry: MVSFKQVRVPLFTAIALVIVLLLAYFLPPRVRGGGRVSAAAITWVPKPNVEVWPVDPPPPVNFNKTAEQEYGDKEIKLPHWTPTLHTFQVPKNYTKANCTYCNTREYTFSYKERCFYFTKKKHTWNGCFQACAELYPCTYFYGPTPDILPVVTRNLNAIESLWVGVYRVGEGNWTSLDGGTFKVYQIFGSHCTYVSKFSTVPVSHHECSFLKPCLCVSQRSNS

The entries are a selection whose mix differs from that of the whole data set. Activity calls are given as the source filed them. No stated cut-off is given here; in the data, active means inhibition above about 50%; inactive means the rest.

In this test the target is Glycoprotein 42 (Epstein-Barr virus (strain AG876)) (UniProt Q1HVG2). Briefly: Epstein-Barr virus gp42 inhibitors, primary screen, biochemical, uHTS, fluorescence polarization (AID 1085). The settings on record: Fluorescence polarization binding assay, mP read-out; active compounds read high; tested at 21.74 µM.
Take `CC(C)(C)OC(=O)N1CCC(Nc2ccccc2)CC1`: the inhibition is inactive: -10.2%. Next, `CCOc1ncccc1C(=O)NCC1(N2CCOCC2)CCCCC1`: inactive: -21.5%; `CCCOc1ccc(C)cc1CN(CCCl)CCCl`: inactive: -5.63%; `CCC(CO)(C(=O)OC1CN2CCC1CC2)c1ccccc1` (centres undefined): inactive: -6.74%. Next, `COc1cc(OC)cc(C(=O)NCC2(N3CCOCC3)CCCCC2)c1`: inactive: 8.46%; `Fc1ccccc1NC1CCN(Cc2ccccc2)CC1`: inactive: -18%; `CN(C)c1ccc(C(=O)NCC2(N3CCCCC3)CCCCC2)cc1`: inactive: -6.59%.

As to `CCN1CCC(Nc2cccc(F)c2)CC1`, the inhibition is inactive: -6.36%. Under `N#Cc1ccc(C(=O)NCC2(N3CCCCC3)CCCCC2)cc1` stands inactive: -26.6%; under `c1ccc(CN2CCC(Nc3ccccc3)CC2)cc1`, inactive: 1.09%. As for `COc1ccc(C(=O)NCC2(N3CCOCC3)CCCCC2)cc1OC`, the inhibition is inactive: -11.1%.

Take `O=C(OC1CN2CCC1CC2)C1c2ccccc2C=Cc2ccccc21` (centres undefined): the inhibition is inactive: -11%. Under `N/C(=N\O)c1c(N)no[n+]1[O-]` stands inactive: -9.03%. Under `CN(C)c1cccc(C(=O)NCC2(N3CCCCC3)CCCCC2)c1` stands inactive: -1.51%; under `COc1ccc(CN(CCCl)CCCl)cc1Cl`, inactive: -17.1%. Next, `CC(C)c1ccc(NC2CCN(C(=O)OC(C)(C)C)CC2)cc1`: inactive: 6.89%; `O=C(NCC1(N2CCCCC2)CCCCC1)c1cccc([N+](=O)[O-])c1`: inactive: -10.9%; `N#CC1(Nc2ccccc2)CCN(CCc2ccccc2)CC1`: inactive: -5.01%. `CN1CCN(CCOC(=O)C(O)(c2ccccc2)c2ccccc2)CC1`: the inhibition was inactive: -15.9%.

As to `COc1ccc(NC2CCN(C(=O)OC(C)(C)C)CC2)cc1`, the inhibition was inactive: -10.9%. Take `O=C(NCC1(N2CCOCC2)CCCCC1)c1cc(=O)[nH]c2ccccc12`: the inhibition was inactive: -0.94%. Next, `COc1ccc(NC2CCN(CCc3ccccc3)CC2)c(OC)c1`: inactive: -10.9%; `CCOc1ccc(C)cc1CN(CCCl)CCCl`: inactive: -9.36%; `Cc1ccc(OCC(C)C)c(CN(CCCl)CCCl)c1`: inactive: -6.38%. In the case of `COc1ccc(C(=O)NCC2(N3CCCCC3)CCCCC2)c(OC)c1OC`, the inhibition is inactive: -11%. Under `CCOC(=O)N1CCC(Nc2ccc(OC)cc2)CC1` stands inactive: -11.3%. Next, `O=C(OC1CN2CCC1CC2)C1c2ccccc2Oc2ccccc21` (centres undefined): inactive: -7.58%; `N#CC1(Nc2ccccc2)CCN(Cc2ccccc2)CC1`: inactive: -5.73%; `O=C(NCC1(N2CCOCC2)CCCCC1)c1cc2ccccc2o1`: inactive: -25.8%.
